Test system: Hong Kong/2369/2009 (H1N1) H275Y oseltamivir resistant
Experiment: Inhibition of viral cytopathic effect (CPE), neutral red
Assay type: cell-based, influenza virus
Details: read-out: 50% effective concentration (EC50); MDCK cells, 3 to 4 days

For `CCC(CC)O[C@@H]1C=C(C(=O)O)C[C@H](N)[C@H]1NC(C)=O` [Oseltamivir Carboxylate, Oseltamivir carboxylate], the EC50 was over 100 µM.

— patent US20130023585A1, “Neuraminidase Inhibitors” (TSRL, INC., priority 2010, published 2013)
